According to publication PMC8713996, “An anti-tuberculosis compound screen using a zebrafish infection model identifies an aspartyl-tRNA synthetase inhibitor” (Disease Models & Mechanisms, 2021):

Tested on: Mmar-R-TBA161-C (aspS R168G)

SMILES	Cross-resistance of the TBA161-C resistant mutant of M. marinum
O=c1c2ccccc2oc2nc3n(c(=O)c12)CCCS3 [TBA161-A, 3,4-dihydro-chromeno[2′,3′:4,5]pyrimido[2,1-b][1,3]thiazine-6,7-dione]	cross-resistance
O=c1c2cc(Br)ccc2oc2nc3n(c(=O)c12)CCCS3 [TBA161-B, 9-bromo-3,4-dihydro-chromeno[2′,3′:4,5]pyrimido[2,1-b][1,3]thiazine-6,7-dione]	cross-resistance
